Patent US20160264649A1
Changes are numbered by the printed parent chain.

B1: 5141_B17 (PGT-126) (antibody, V domains shown)
VH: QPQLQESGPGLVEASETLSLTCTVSGDSTAACDYFWGWVRQPPGKGLEWIGGLSHCAGYYNTGWTYHNPSLKSRLTISLDTPKNQVFLKLNSVTAADTAIYYCARFDGEVLVYHDWPKPAWVDLWGRGTLVTVSS
VL: QSALTQPPSASGSPGQSISISCTGTSNRFVSWYQQHPGKAPKLVIYGVNKRPSGVPDRFSGSKSGNTASLTVSGLQTDDEAVYYCSSLVGNWDVIFGGGTKLTVL
B2: 5145_B14 (PGT-127) (antibody, V domains shown)
VH: QPQLQESGPGLVEASETLSLTCTVSGDSTGRCNYFWGWVRQPPGKGLEWIGSLSHCRSYYNTDWTYHNPSLKSRLTISLDTPKNQVFLRLTSVTAADTATYYCARFGGEVLVYRDWPKPAWVDLWGRGTLVVTVSS
VL: B1 VL with S19T, R28N, H36Y, G47E, N66S, T77A, A81G
B3: 5114_A19 (PGT-128) (antibody, V domains shown)
VH: QPQLQESGPTLVEASETLSLTCAVSGDSTAACNSFWGWVRQPPGKGLEWVGSLSHCASYWNRGWTYHNPSLKSRLTLALDTPKNLVFLKLNSVTAADTATYYCARFGGEVLRYTDWPKPAWVDLWGRGTLVTVSS
VL: B1 VL with S19T, R28N, P37A, G47D, S86G
B4: 5147_N06 (PGT-130) (antibody, V domains shown)
VH: QVQLQESGPGLVKPAETLSLTCSVSGESINTGHYYWGWVRQVPGKGLEWIGHIHYTTAVLHNPSLKSRLTIKIYTLRNQITLRLSNVTAADTAVYHCVRSGGDILYYYEWQKPHWFSPWGPGIHVTVSS
VL: QSALTQPPSASGSLGQSVTISCNGTSSDIGGWNFVSWYQQFPGRAPRLIIFEVNKRPSGVPGRFSGSKSGNSASLTVSGLQSDDEGQYFCSSLFGRWDVVFGGGTKLTVL

Each binder was assayed against HIV-1 Env of all viruses (n=162) of the cross-clade 162-pseudovirus panel (assay: cell-based or functional assay).
B1 showed a Median IC50 (µg/ml) against all viruses of 1.08 µg/mL, a Median IC50 (µg/ml) against viruses neutralized with an IC50 <50 µg/ml of 0.04 µg/mL and a Percent viruses neutralized with an IC50 <50 µg/ml of 60%.
In the case of B2, the Median IC50 (µg/ml) against all viruses is reported as 42.8 µg/mL, the Median IC50 (µg/ml) against viruses neutralized with an IC50 <50 µg/ml is reported as 0.08 µg/mL and the Percent viruses neutralized with an IC50 <50 µg/ml is reported as 50%.
For B3, the Median IC50 (µg/ml) against all viruses was 0.1 µg/mL, the Median IC50 (µg/ml) against viruses neutralized with an IC50 <50 µg/ml was 0.02 µg/mL and the Percent viruses neutralized with an IC50 <50 µg/ml was 72%.
B4 showed a Median IC50 (µg/ml) against all viruses of 22.1 µg/mL and a Percent viruses neutralized with an IC50 <50 µg/ml of 52%.

Each binder was assayed against HIV-1 Env of the 162-pseudovirus panel representing all major circulating HIV-1 subtypes (HIV-1) (assay: cell-based or functional assay).
With B1 the Median IC50 (µg/ml) against viruses neutralized with an IC50 <50 µg/ml was 0.04 µg/mL, the Percent viruses neutralized, IC50 < 0.1 µg/ml was 40% and the Percent viruses neutralized, IC50 < 1 µg/ml was 50%. It also gave a Percent viruses neutralized, IC50 < 50 µg/ml of 60%.
In the case of B2, the Median IC50 (µg/ml) against viruses neutralized with an IC50 <50 µg/ml is reported as 0.08 µg/mL, the Percent viruses neutralized, IC50 < 0.1 µg/ml is reported as 27% and the Percent viruses neutralized, IC50 < 1 µg/ml is reported as 37%. The Percent viruses neutralized, IC50 < 50 µg/ml was 50%.
For B3, the Median IC50 (µg/ml) against viruses neutralized with an IC50 <50 µg/ml was 0.02 µg/mL, the Percent viruses neutralized, IC50 < 0.1 µg/ml was 50% and the Percent viruses neutralized, IC50 < 1 µg/ml was 60%. It also gave a Percent viruses neutralized, IC50 < 50 µg/ml of 72%.
Binder B4 has a Median IC50 (µg/ml) against viruses neutralized with an IC50 <50 µg/ml of 0.16 µg/mL, a Percent viruses neutralized, IC50 < 0.1 µg/ml of 23% and a Percent viruses neutralized, IC50 < 1 µg/ml of 35%. It also gave a Percent viruses neutralized, IC50 < 50 µg/ml of 52%.

These binders were tested against HIV-1 Env of the clade A viruses (n=26) of the cross-clade 162-pseudovirus panel (assay: cell-based or functional assay).
For B1, the Median IC50 (µg/ml) against all viruses was 2.62 µg/mL, the Median IC50 (µg/ml) against viruses neutralized with an IC50 <50 µg/ml was 0.01 µg/mL and the Percent viruses neutralized with an IC50 <50 µg/ml was 50%.
B2 gave a Median IC50 (µg/ml) against all viruses of 21.7 µg/mL, a Median IC50 (µg/ml) against viruses neutralized with an IC50 <50 µg/ml of 0.02 µg/mL and a Percent viruses neutralized with an IC50 <50 µg/ml of 50%.
B3 was tested, and the Median IC50 (µg/ml) against all viruses was 0.35 µg/mL, the Median IC50 (µg/ml) against viruses neutralized with an IC50 <50 µg/ml was 0.01 µg/mL and the Percent viruses neutralized with an IC50 <50 µg/ml was 50%.
B4 showed a Median IC50 (µg/ml) against all viruses of 41.4 µg/mL, a Median IC50 (µg/ml) against viruses neutralized with an IC50 <50 µg/ml of 0.09 µg/mL and a Percent viruses neutralized with an IC50 <50 µg/ml of 50%.

The binders below were run against HIV-1 Env of the clade AE viruses (n=10) of the cross-clade 162-pseudovirus panel (assay: cell-based or functional assay).
In the case of B1, the Median IC50 (µg/ml) against all viruses is reported as 50 µg/mL, the Median IC50 (µg/ml) against viruses neutralized with an IC50 <50 µg/ml is reported as 1.77 µg/mL and the Percent viruses neutralized with an IC50 <50 µg/ml is reported as 40%.
In the case of B2, the Median IC50 (µg/ml) against all viruses is reported as 50 µg/mL and the Percent viruses neutralized with an IC50 <50 µg/ml is reported as 0%.
B3 showed a Median IC50 (µg/ml) against all viruses of 0.31 µg/mL, a Median IC50 (µg/ml) against viruses neutralized with an IC50 <50 µg/ml of 0.06 µg/mL and a Percent viruses neutralized with an IC50 <50 µg/ml of 60%.
Binder B4 has a Median IC50 (µg/ml) against all viruses of 0.58 µg/mL, a Median IC50 (µg/ml) against viruses neutralized with an IC50 <50 µg/ml of 0.17 µg/mL and a Percent viruses neutralized with an IC50 <50 µg/ml of 80%.

These binders were tested against HIV-1 Env of the clade AG viruses (n=10) of the cross-clade 162-pseudovirus panel (assay: cell-based or functional assay).
In the case of B1, the Median IC50 (µg/ml) against all viruses is reported as 11.1 µg/mL, the Median IC50 (µg/ml) against viruses neutralized with an IC50 <50 µg/ml is reported as 0.03 µg/mL and the Percent viruses neutralized with an IC50 <50 µg/ml is reported as 50%.
Binder B2 has a Median IC50 (µg/ml) against all viruses of 50 µg/mL, a Median IC50 (µg/ml) against viruses neutralized with an IC50 <50 µg/ml of 0.04 µg/mL and a Percent viruses neutralized with an IC50 <50 µg/ml of 40%.
Work on B3 yielded a Median IC50 (µg/ml) against all viruses of 1.62 µg/mL, a Median IC50 (µg/ml) against viruses neutralized with an IC50 <50 µg/ml of 0.67 µg/mL and a Percent viruses neutralized with an IC50 <50 µg/ml of 90%.
B4 gave a Median IC50 (µg/ml) against all viruses of 21.8 µg/mL, a Median IC50 (µg/ml) against viruses neutralized with an IC50 <50 µg/ml of 0.04 µg/mL and a Percent viruses neutralized with an IC50 <50 µg/ml of 50%.

These binders were tested against HIV-1 Env of the clade B viruses (n=31) of the cross-clade 162-pseudovirus panel (assay: cell-based or functional assay).
B1 gave a Median IC50 (µg/ml) against all viruses of 0.04 µg/mL, a Median IC50 (µg/ml) against viruses neutralized with an IC50 <50 µg/ml of 0.02 µg/mL and a Percent viruses neutralized with an IC50 <50 µg/ml of 81%.
For B2, the Median IC50 (µg/ml) against all viruses was 0.12 µg/mL, the Median IC50 (µg/ml) against viruses neutralized with an IC50 <50 µg/ml was 0.06 µg/mL and the Percent viruses neutralized with an IC50 <50 µg/ml was 81%.
For B3, the Median IC50 (µg/ml) against viruses neutralized with an IC50 <50 µg/ml was 0.01 µg/mL and the Percent viruses neutralized with an IC50 <50 µg/ml was 81%.
B4 gave a Median IC50 (µg/ml) against all viruses of 5.17 µg/mL, a Median IC50 (µg/ml) against viruses neutralized with an IC50 <50 µg/ml of 0.09 µg/mL and a Percent viruses neutralized with an IC50 <50 µg/ml of 65%.

Each binder was assayed against HIV-1 Env of the clade C viruses (n=27) of the cross-clade 162-pseudovirus panel (assay: cell-based or functional assay).
B1 gave a Median IC50 (µg/ml) against all viruses of 0.79 µg/mL, a Median IC50 (µg/ml) against viruses neutralized with an IC50 <50 µg/ml of 0.18 µg/mL and a Percent viruses neutralized with an IC50 <50 µg/ml of 74%.
B2 was tested, and the Median IC50 (µg/ml) against all viruses was 19.2 µg/mL, the Median IC50 (µg/ml) against viruses neutralized with an IC50 <50 µg/ml was 0.55 µg/mL and the Percent viruses neutralized with an IC50 <50 µg/ml was 52%.
B3 was tested, and the Median IC50 (µg/ml) against viruses neutralized with an IC50 <50 µg/ml was 0.04 µg/mL and the Percent viruses neutralized with an IC50 <50 µg/ml was 78%.
Work on B4 yielded a Median IC50 (µg/ml) against all viruses of 50 µg/mL, a Median IC50 (µg/ml) against viruses neutralized with an IC50 <50 µg/ml of 0.15 µg/mL and a Percent viruses neutralized with an IC50 <50 µg/ml of 48%.

The binders below were run against HIV-1 Env of the clade D viruses (n=25) of the cross-clade 162-pseudovirus panel (assay: cell-based or functional assay).
In the case of B1, the Median IC50 (µg/ml) against all viruses is reported as 43.1 µg/mL, the Median IC50 (µg/ml) against viruses neutralized with an IC50 <50 µg/ml is reported as 0.04 µg/mL and the Percent viruses neutralized with an IC50 <50 µg/ml is reported as 52%.
Work on B2 yielded a Median IC50 (µg/ml) against all viruses of 50 µg/mL, a Median IC50 (µg/ml) against viruses neutralized with an IC50 <50 µg/ml of 0.49 µg/mL and a Percent viruses neutralized with an IC50 <50 µg/ml of 48%.
B3 showed a Median IC50 (µg/ml) against all viruses of 0.14 µg/mL and a Percent viruses neutralized with an IC50 <50 µg/ml of 60%.
With B4 the Median IC50 (µg/ml) against all viruses was 50 µg/mL, the Median IC50 (µg/ml) against viruses neutralized with an IC50 <50 µg/ml was 0.65 µg/mL and the Percent viruses neutralized with an IC50 <50 µg/ml was 44%.

These binders were tested against HIV-1 Env of the clade F viruses (n=15) of the cross-clade 162-pseudovirus panel (assay: cell-based or functional assay).
Binder B1 has a Median IC50 (µg/ml) against all viruses of 50 µg/mL, a Median IC50 (µg/ml) against viruses neutralized with an IC50 <50 µg/ml of 0.06 µg/mL and a Percent viruses neutralized with an IC50 <50 µg/ml of 33%.
B2 showed a Median IC50 (µg/ml) against all viruses of 50 µg/mL, a Median IC50 (µg/ml) against viruses neutralized with an IC50 <50 µg/ml of 0.65 µg/mL and a Percent viruses neutralized with an IC50 <50 µg/ml of 27%.
B3 gave a Median IC50 (µg/ml) against all viruses of 1.21 µg/mL, a Median IC50 (µg/ml) against viruses neutralized with an IC50 <50 µg/ml of 0.52 µg/mL and a Percent viruses neutralized with an IC50 <50 µg/ml of 80%.
Binder B4 has a Median IC50 (µg/ml) against all viruses of 50 µg/mL, a Median IC50 (µg/ml) against viruses neutralized with an IC50 <50 µg/ml of 0.07 µg/mL and a Percent viruses neutralized with an IC50 <50 µg/ml of 33%.

Each binder was assayed against HIV-1 Env of the clade G viruses (n=15) of the cross-clade 162-pseudovirus panel (assay: cell-based or functional assay).
For B1, the Median IC50 (µg/ml) against all viruses was 48.9 µg/mL, the Median IC50 (µg/ml) against viruses neutralized with an IC50 <50 µg/ml was 0.18 µg/mL and the Percent viruses neutralized with an IC50 <50 µg/ml was 33%.
B2 was tested, and the Median IC50 (µg/ml) against all viruses was 50 µg/mL, the Median IC50 (µg/ml) against viruses neutralized with an IC50 <50 µg/ml was 0.22 µg/mL and the Percent viruses neutralized with an IC50 <50 µg/ml was 40%.
In the case of B3, the Median IC50 (µg/ml) against viruses neutralized with an IC50 <50 µg/ml is reported as 0.04 µg/mL and the Percent viruses neutralized with an IC50 <50 µg/ml is reported as 67%.
In the case of B4, the Median IC50 (µg/ml) against all viruses is reported as 50 µg/mL, the Median IC50 (µg/ml) against viruses neutralized with an IC50 <50 µg/ml is reported as 4.14 µg/mL and the Percent viruses neutralized with an IC50 <50 µg/ml is reported as 47%.
